From patent US8834852B2, “Composition for oral cavity” (Kao Corporation, priority 2004, dated 2014)

System: plaque suspension
Experiment: pH change of plaque suspension (acid generation by decomposition)
Format: cell-based
Settings: 0.9% (wt/vol %) inhibitor in 5 wt. % plaque suspension, pH adjusted to 7, 37° C.

Row | SMILES | pH change of the plaque suspension
1 | O=C[C@H](O)[C@@H](O)[C@@H](O)[C@H](O)CO [Galactose, galactose] | a pH decrease was observed
2 | OC[C@H]1O[C@@H](O[C@H]2[C@H](O)[C@@H](O)C(O)O[C@@H]2CO)[C@H](O)[C@@H](O)[C@H]1O (stereo partly drawn) [Lactose, lactose] | a pH decrease was observed
3 | CCCCCCCCO[C@@H]1O[C@H](CO)[C@H](O)[C@H](O)[C@H]1O [β-octyl galactoside] | almost no pH change was observed
